Measured data: PubChem BioAssay AID1224833 (University of Georgia, 2016)
Here is one part, drawn at random, of about 12,000 reagents tested. Of all reagents, about 5,600 (46%) are marked active. 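Active calls cover z-scores past 1 in both directions, so they include lowered as well as raised rotavirus replication.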 Unmarked entries are inactive.

Assay: 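Human genes whose knock-down alters rotavirus replication in monkey cells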 (primary screen)
Cell system: monkey MA104 kidney cells
Reagents: siRNA pool against human genes, 50 nM
Timing: 48 h knock-down before infection; read 24 h after infection
Treatment: infection with rotavirus strain RV3 two days after transfection; infectious dose for this stage not given
Measured: 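z-score of rotavirus antigen signal per well, from a fluorescent immunoassay, relative to non-targeting control wells on the same plate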
Reading the numbers: z-score vs non-targeting control: higher = more rotavirus replication than with non-targeting control
Active means: In these data the active calls have z-score vs non-targeting control at about -1 or lower, or at about 1 or higher
Calls: active = z-score beyond 1 either way; inactive = z-score within 1 of zero

| z-score vs non-targeting control | gene | PubChem SID |
| --- | --- | --- |
| 0.65 | ADAT1 | SID329578045 |
| -0.827 | PUF60 | SID329577666 |
| -1.42 (active) | CD302 | SID329576881 |
| -0.641 | SPTSSB | SID329583270 |
| -0.982 | SVIL | SID329575535 |
| -4.39 (active) | PSMD1 | SID329574991 |
| -1.09 (active) | IFNA1 | SID329574095 |
| -1.02 (active) | ATP13A1 | SID329580174 |
| 0.866 | ANO10 | SID329579582 |
| -0.376 | ACTRT3 | SID329581641 |
| 0.122 | RNH1 | SID329575135 |
| 0.773 | UACA | SID329579554 |
| 2.17 (active) | MTRFR | SID329582011 |
| -1.44 (active) | GHRH | SID329573762 |
| 0.79 | IDNK | SID329584548 |
| -1.22 (active) | CETN2 | SID329573141 |
| -0.227 | TPGS1 | SID329582043 |
| -0.907 | GSTA1 | SID329573878 |
| -1.78 (active) | PRRT1 | SID329581270 |
| 0.681 | MUC21 | SID329584463 |
| 0.917 | CEP72 | SID329579833 |
| 0.935 | RBM47 | SID329579296 |
| -0.464 | STEEP1 | SID329580523 |
| -0.528 | TNFRSF21 | SID329578541 |
| -2.66 (active) | CDC16 | SID329576335 |
| -1.47 (active) | SIGLEC6 | SID329573072 |
| -0.177 | CD96 | SID329577036 |
| 0.492 | GJD2 | SID329580221 |
| -0.562 | RASSF8 | SID329577607 |
| -1.04 (active) | PRCC | SID329574935 |
| -1.34 (active) | ROPN1B | SID329583061 |
| -1.96 (active) | NRAS | SID329574671 |
| 0.691 | PLA2G4D | SID329583852 |
| -1.5 (active) | KLHL5 | SID329578896 |
| -0.978 | NGRN | SID329579029 |
| -1.78 (active) | KRTAP5-7 | SID329584562 |
| 0.52 | CHMP1B | SID329580175 |
| -2.07 (active) | TDP2 | SID329579127 |
| -5.36 (active) | KISS1 | SID329574216 |
| -2.08 (active) | SDR39U1 | SID329580106 |
| -1.06 (active) | NUP205 | SID329577842 |
| 0.402 | CABIN1 | SID329578037 |
| -0.862 | PBOV1 | SID329580459 |
| -0.434 | PCDHA5 | SID329579992 |
| -1.14 (active) | RB1 | SID329575083 |
| -0.306 | FAM171B | SID329583265 |
| -1.71 (active) | ACTL9 | SID329583886 |
| -3.01 (active) | ACADM | SID329572665 |
| 0.14 | L3MBTL4 | SID329581988 |
| 1.57 (active) | MPLKIP | SID329582739 |
| -2.54 (active) | ITGAX | SID329574190 |
| -1.21 (active) | ESYT1 | SID329577947 |
| -1.31 (active) | CCNG1 | SID329573040 |
| 0.659 | DEFB112 | SID329583647 |
| 1.34 (active) | PRSS48 | SID329584138 |
| 1.19 (active) | WDR76 | SID329581100 |
| -2.47 (active) | TSPAN5 | SID329576961 |
| -0.671 | ADD3 | SID329572695 |
| -1.08 (active) | SLC6A18 | SID329584179 |
| 1.7 (active) | IL9R | SID329574144 |
| 0.882 | RFX4 | SID329575117 |
| -0.761 | DPH3 | SID329583930 |
| 0.155 | PGAP2 | SID329578573 |
| 1.2 (active) | CDH17 | SID329573116 |
| 0.402 | CAB39L | SID329581332 |
| -1.86 (active) | HHLA2 | SID329577563 |
| 0.749 | LGI2 | SID329579635 |
| 0.919 | GRAMD4 | SID329577833 |
| -0.262 | EIF4EBP3 | SID329576207 |
| 0.776 | RECK | SID329576107 |
| -2.8 (active) | SLC25A37 | SID329579016 |
| -2.19 (active) | SH2D2A | SID329576390 |
| 2.89 (active) | LHFPL6 | SID329577015 |
| 0.3 | TACC1 | SID329575545 |
| 1.23 (active) | TNNT3 | SID329575689 |

A stretch from the list above, for reference:
| z-score vs non-targeting control | gene | PubChem SID |
| --- | --- | --- |
| 0.122 | RNH1 | SID329575135 |
| 0.773 | UACA | SID329579554 |
| 2.17 (active) | MTRFR | SID329582011 |
| -1.44 (active) | GHRH | SID329573762 |
| 0.79 | IDNK | SID329584548 |
| -1.22 (active) | CETN2 | SID329573141 |
